For at least one entry, the source does not settle the construct or the ends of the probe. At least one verdict was read from the data and is not stated in words by the source.

The target of the series is MucR (Brucella abortus) (UniProt A0A0H3AQN7). The experiment in a line: EMSA. The note with it: preferred over NS; recombinant protein.

Consider “ATGAAGTTATATTCAATATAAAAGTAGAAT (double strand) [babR30]”, for which the binding result was “binds”.

(Values after publication PMC11662661.)
